Results of unrelated studies side by side (data: NIAID ChemDB).

Common to all: toxicity to cultured cells; cell line: HepG2; measure: CC50

Blank or dashed fields: not listed here. Conditions beyond the fields shown may differ between rows. CCn: concentration that lowers growth or viability of the cells by n%.

smiles,method,setting,result
CC[C@@H](CO)NCCN[C@@H](CC)CO,luminescence,,>100 µg/mL
Cc1cc2ccc3c(c2c(-c2ccc4c(c2)OCO4)c1CO)OCO3,,,16 µM
CC(=O)c1cc(O)c(O)c(=O)cc1C,MTS,7 d,3.61 µM
Nc1nc(NC2CC2)c2ncn([C@H]3C=C[C@@H](CO)O3)c2n1,,,>500 µM
c1ccc(C(CCNCC2(c3ccc4c(c3)OCCO4)CCOCC2)c2ccccc2)cc1,cell count / luminescence,,>24.9 µM
O=C1OCc2cc3ccc4c(c3c(-c3ccc5c(c3)OCO5)c21)OCO4,,,12 µM
CC1CC(C)CN(c2sc([N+](=O)[O-])cc2[N+](=O)[O-])C1,resazurin,,72 µg/mL
CO[C@H]1/C=C/O[C@@]2(C)Oc3c(C)c(O)c4c(O)c(c(/C=N/N5CCN(C)CC5)c(O)c4c3C2=O)NC(=O)/C(C)=C\C=C\[C@H](C)[C@H](O)[C@@H](C)[C@@H](O)[C@@H](C)[C@H](OC(C)=O)[C@@H]1C,MTT,,>30 µM
C[C@]1(COc2ccc(-n3cc(COc4ccc(OC(F)(F)F)cc4)nn3)cc2)Cn2cc([N+](=O)[O-])nc2O1,MTT,,>75 µM
O=C(N/N=C/C12CC3CC(C1)CC(c1ccccc1)(C3)C2)c1ccncc1,luminescence,,25 µg/mL
Nc1ncnc2c1ncn2CCOCP(=O)(O)O,MTT,,1100 µM
CC1=CCC(C(C)C2=C(C)C3C[C@]4(O)C=C5C=CC(=O)OC(C)(C)C5[C@H](O)CC4[C@]3(C)C=C2)OC1=O,MTT,,17.85 µM
CCN(CC)CC.Nc1ncnc2c1ncn2[C@@H]1O[C@H](CNS(=O)(=O)NC(=O)c2ccccc2O)CC1F,MTT / absorbance,,>200 µM
Cc1cn([C@@H]2C[C@@H](F)[C@H](CO)O2)c(=O)[nH]c1=O,,,>200 µM
C/C(=C/CC[C@@H](C)[C@H]1CC[C@@]2(C)C3CCC4C(C)(C)C(=O)CC[C@@]45CC35CC[C@]12C)C(=O)O,MTT,,36.67 µM
O=S(=O)(NCc1ccccc1)c1ccc(-c2cc3ccncc3cc2OC2CCNCC2)s1,ATP / luminescence,,12.6 µM
Cc1csc(C(C)(O)c2nnc(Nc3cccc(Br)n3)s2)n1,resazurin / fluorescence,,>50 µM
O=[N+]([O-])c1ccc(F)c(N=Cc2ccc([N+](=O)[O-])o2)c1,MTT,,>80 µg/mL
O=C1OC(=O)c2c1c(Br)c1cc3c(cc1c2-c1cc2c(cc1Br)OCO2)OCO3,,,6 µM
Nc1ccn([C@H]2CC[C@@H](CO)O2)c(=O)n1,,,7 µM
CCCCNCCCCCOc1ccc2ccccc2c1,cell count / luminescence,,12.8 µM
O=C(N[C@H](CO)Cc1ccccc1)/C(NC(=O)c1ccc(Cl)cc1Cl)=C(/Br)c1ccccc1,MTT,,>100 µM
COc1nc(OC(F)(F)F)c(NC(=O)C2CCC3C4CN(C(=O)OC(C)(C)C)C5=CC(=O)CC[C@]5(C)C4CC[C@]23C)cc1Br,ATP / luminescence,,>30 µM
C=C1C2C[C@]3(O)C=C4C=CC(=O)OC(C)(C)C4[C@H](O)CC3[C@]2(C)CCC1(O)C(C)C1CC=C(C)C(=O)O1,MTT,,20.44 µM
Cc1cn([C@H]2C=C[C@@H](CO)O2)c(=O)[nH]c1=O,,,>200 µM
CC[C@H](CC[C@@H](C)[C@H]1CCC2C3CC=C4C[C@@H](O)CC[C@]4(C)[C@@]3(C)CC[C@@]21C)C(C)C,ATP,,>26 µM
Cc1cn([C@@H]2C[C@@H](N)[C@H](CO)O2)c(=O)[nH]c1=O,,,>200 µM
Cc1[nH]n(-c2ccccc2)c(=O)c1Sc1ccc(Cl)cc1Cl,fluorescence,,>50 µM
O=c1cc(N2CCN(CC3CCCCC3)CC2)sc2c([N+](=O)[O-])cc(C(F)(F)F)cc12,MTT,,>64 µg/mL
CC1CCCC23CC4C(CC12C)C4(C)C3,ATP,,>26 µM
CC(C)OC(=O)[C@H](C)N[P@](=O)(CO[C@H](C)Cn1cnc2c(N)ncnc21)Oc1ccccc1,ATP,,6.9 µM
Nc1ccn([C@H]2CC[C@@H](CO)O2)c(=O)n1,neutral red,,7.7 µM
C=C(C)[C@@H]1CCC2[C@]3(CC[C@]4(C)[C@@H]([C@H](C)CC/C=C(/C)C(=O)O)CC[C@@]24C)C[C@]13CCC(=O)O,MTT,,15.79 µM
O=C(/C=C/c1ccco1)Nc1ccc(-c2nc3ccccc3[nH]2)cc1,MTT,,163 µg/mL
COc1ccc2nc(C)cc(OCC(=O)Nc3cc(OC)c(Cl)cc3OC)c2c1,luminescence,,>100 µM
CCCCCCCC(=O)OC1O[C@@H]2OC3(C)CCC4[C@H](C)CCC([C@H]1C)[C@]42OO3,ATP / luminescence,,>26 µM
CC/C=C\C[C@H]1C(=O)CC[C@@H]1CC(=O)OC,ATP,,>26 µM
CC(C)OC(=O)[C@H](C)N[P@](=O)(OC[C@H]1O[C@@](C#N)(c2ccc3c(N)ncnn23)[C@](C)(O)[C@@H]1OC(=O)C(C)C)Oc1ccccc1,ATP,,66 µM
CC1CC(C)CN(c2ccc([N+](=O)[O-])s2)C1,resazurin,,110 µg/mL
CCOc1ccc(Nc2cc(C)nc3ccc(OC)cc23)cc1,cell count / luminescence,,>27.4 µM
Cc1ccc(NC2=CC(=O)c3ccccc3C2=O)cc1,MTT,,>20 µg/mL
Cc1ccc2c3c1C(CN)OB3OCCO2,resazurin,,36.4 µM
Cc1occc1-c1nnc(SCC(=O)N(C)c2ccc(F)cc2)o1,MTT,,>80 µg/mL
O=[N+]([O-])c1ccc(O)c(C=Nc2cccc3cccnc23)c1,MTT,,443.1 µg/mL
C[C@@H]1CCC2[C@@H](C)[C@@H](OCCN3CCCCC3)O[C@@H]3OC4(C)CCC1[C@@]23OO4,ATP / luminescence,,>31.7 µM
O=C(N/N=C/C12CC3CC(C1)CC(/C=N/NC(=O)c1ccncc1)(C3)C2)c1ccncc1,luminescence,,>100 µg/mL
C[C@@H]1O[C@@H](O[C@@H]2[C@@H](O)[C@H](OCCc3ccc(O)c(O)c3)O[C@H](COC(=O)/C=C/c3ccc(O)c(O)c3)[C@H]2O)[C@H](O)[C@H](O)[C@H]1O,MTT,,8.59 µM
Cc1cn([C@H]2C[C@H](N=[N+]=[N-])[C@@H](CO)O2)c(=O)[nH]c1=O,,,>200 µM
Nc1nc2c(ncn2[C@H]2CO[C@@H](CO)O2)c(=O)[nH]1,,,>500 µM
O=C(Nc1ccc(Cl)cc1)c1cc(Cl)ccc1OC(=O)N(c1ccccc1)c1ccccc1,MTT,,>100 µM
CC(C)C[C@@H]1NC(=O)[C@H](Cc2c[nH]c3ccccc23)NC(=O)[C@@H](CCCCN)NC(=O)[C@H](CO)NC(=O)[C@H](C(C)C)NC(=O)[C@@H](CC(C)C)NC1=O,MTT,,>30 µM
CC(=O)Oc1ccccc1C(=O)OC1O[C@@H]2OC3(C)CCC4[C@H](C)CCC([C@H]1C)[C@]42OO3,ATP / luminescence,,>26 µM
CC1CCCN(c2ccc([N+](=O)[O-])s2)C1,resazurin,,>20 µg/mL
C[C@@H]1O[C@@H](O[C@@H]2[C@@H](O)[C@H](OCCc3ccc(O)c(O)c3)O[C@H](CO)[C@H]2OC(=O)/C=C/c2ccc(O)c(O)c2)[C@H](O)[C@H](O)[C@H]1O,MTT,,6.03 µM
COc1cc2c(cc1O)C(OC)CN1CC=C3C=C[C@H](OC)C[C@]321,MTT,,11.4 µg/mL
Nc1nc(N)c2ncn([C@H]3CO[C@@H](CO)O3)c2n1,,,>50 µM
O=C(N/N=C/C1C2CC3CC(C2)CC1C3)c1ccncc1,luminescence,,>100 µg/mL
Nc1ccc(NC2=C(N3CCCCC3)C(=O)c3ccccc3C2=O)cc1,MTT,,130.5 µg/mL
CN(C(=O)Oc1ccc(Cl)cc1C(=O)Nc1ccc(Cl)cc1)c1ccccc1,MTT,,289 µM
CC(C)C[C@@H]1NC(=O)[C@H](Cc2c[nH]c3ccccc23)NC(=O)[C@@H](CCCCN)NC(=O)CNC(=O)[C@H](C(C)C)NC(=O)[C@@H](CC(C)C)NC1=O,MTT,,>30 µM
O=C(Nc1ccccc1)c1ccccc1OC(=O)N(c1ccccc1)c1ccccc1,MTT,,211.1 µM
COc1cc(/C=C/C(=O)O[C@H]2[C@H](O)[C@@H](OC3OCC(O)(CO)C3O)[C@H](OCCc3ccc(O)cc3)O[C@@H]2CO)ccc1O,MTT,,9.04 µM
Cc1cn([C@@H]2C=C[C@H](CO)O2)c(=O)[nH]c1=O,,,>200 µM
COC(=O)N[C@H](C(=O)N1CCC[C@H]1c1nc2ccc(-c3csc4c(-c5ccc(-c6cnc([C@@H]7CCCN7C(=O)[C@H](NC(=O)OC)c7ccccc7)[nH]6)cc5)csc34)cc2[nH]1)C(C)C,LDH,,>100 µM
CCSc1nc(NC)c2ccc(F)c(F)c2n1,fluorescence,,39 µg/mL
C[C@H](Cn1cnc2c(N)ncnc21)OCP(=O)(O)O,ATP,,1530 µM
COc1ccc(/C=C2/SC(=S)N(N)C2=O)cc1,MTT,,>160 µg/mL
Nc1nc2c(ncn2[C@H]2C=C[C@@H](CO)O2)c(=O)[nH]1,,,280 µM
CC(=O)OC(C1C=C(C)C(=O)O1)C(C)C1C2C3(O)OC4(CCC12C)C(=CCC1C(C)(C)OC2CC(=O)OC21C4O)C3=O,MTT,,9.5 µg/mL
OC(COc1ccc(OCc2ccccc2)cc1)CN1CCCCC1,cell count / luminescence,,>27.1 µM
CC(C)CNCCO[C@H]1O[C@@H]2OC3(C)CCC4[C@H](C)CCC([C@H]1C)[C@]42OO3,ATP / luminescence,,>16 µM
OCCc1ccc(O)c(O[C@@H]2O[C@H](CO)[C@@H](O)[C@H](O)[C@H]2O)c1,MTT,,8.63 µM
Cc1ccc(Cl)cc1N=c1c([N+](=O)[O-])nn(-c2ccccc2)n1O,MTT,,>80 µg/mL
O=C(N/N=C/CC12CC3CC(CC(C3)C1)C2)c1ccncc1,luminescence,,40.1 µg/mL
CC1CCN(c2sc([N+](=O)[O-])cc2[N+](=O)[O-])CC1,resazurin,,8.9 µg/mL
c1ccc2cc(OCCCCCN3CCCCC3)ccc2c1,cell count / luminescence,,8.43 µM

8 of the rows above, restated:

| smiles | method | setting | result |
|---|---|---|---|
| O=C(/C=C/c1ccco1)Nc1ccc(-c2nc3ccccc3[nH]2)cc1 | MTT |  | 163 µg/mL |
| CC/C=C\C[C@H]1C(=O)CC[C@@H]1CC(=O)OC | ATP |  | >26 µM |
| CCCCNCCCCCOc1ccc2ccccc2c1 | cell count / luminescence |  | 12.8 µM |
| COc1nc(OC(F)(F)F)c(NC(=O)C2CCC3C4CN(C(=O)OC(C)(C)C)C5=CC(=O)CC[C@]5(C)C4CC[C@]23C)cc1Br | ATP / luminescence |  | >30 µM |
| OC(COc1ccc(OCc2ccccc2)cc1)CN1CCCCC1 | cell count / luminescence |  | >27.1 µM |
| Cc1occc1-c1nnc(SCC(=O)N(C)c2ccc(F)cc2)o1 | MTT |  | >80 µg/mL |
| O=C(N[C@H](CO)Cc1ccccc1)/C(NC(=O)c1ccc(Cl)cc1Cl)=C(/Br)c1ccccc1 | MTT |  | >100 µM |
| Cc1csc(C(C)(O)c2nnc(Nc3cccc(Br)n3)s2)n1 | resazurin / fluorescence |  | >50 µM |